Experimental data from the supplement of paper PMC9931576.
Human monoclonal antibodies against the spike receptor-binding domain (heavy:light variable regions). IC50 against pseudoviruses bearing the spike of naturally observed variants; lower = stronger; >10 µg/ml means not reached at the top dose. No active / inactive call. The stated detection limit is 0.0005 µg/ml; values near or below 0.001 µg/ml lie at the floor of the assay.

B1: BD55-6264 (protein)
chain 1: QVQLVQSGAEVKKPGASVKVSCKASGYTFTAYDINWMRLATGQGLEWMGWMNPNTGDTGYAHKFQGRVSMTRDTSSSTAYMELSSLRSEDTAVYYCAIGQRRYYYGLGSQWGQGTQVTVSS
chain 2: DIQMTQSPSSLPASVGDRVTITCRASQSISTYLNWYQRKPGKAPKLLIYDASSVESGVPSRFSGSGTRTDFTLTITSLQPEDFATYYCQQSYSFPYNFGQGTKLEI
B2: BD55-6268 (protein)
chain 1: EVQLVESGGGLVQPGRSLRLSCAASGFTFGEYAMHWVRQAPGKGLEWVAGITWKSGSVGYADSAKGRFTISRDDAKNSLYLQMNSLKAEDTAFYHCAKDDCSSTNCQFYYYYMDVWGRGTTVTVSS
chain 2: QSVLTQPPSVSGAPGQRVTISCTGSSSNIGAGYDVHWYQQVPGTVPKILIYGNTNRPSGVPDRFSGSRSGTSASLAIAGLQAEDEADYYCQSFDSSLSGHVVFGGGTKLTVL
B3: BD55-6261 (protein)
chain 1: QLRLQESGPGLVKPSETLSLTCTVSDDSISSSNYYWGWVRQPPGKGLEWIGTIYYTGVTYYSPSLKSRVTMSVDTSRNQFSLTLTSVTAADTALYYCARHLGGDREERLTSSWYDSWTGGHFDLWGRGSRVTVSS
chain 2: QSVLTQPPSVSGAPGQRVTISCTGSSSNIGASYDVHWYQQLPGTAPKLLIYGNNNRPSGVPDRFSGSKSGTSASLAITRLQAEDEADYYCQSYDSNMSGWVFGGGTKLTVL
B4: BD55-6262 (protein)
chain 1: QVQLVQSGAEVKKPGSSVKVSCKASGGTFINYPISWVRQAPGQGLECMGRIIPLLGTAHYAQKFQGRVTITADKSTNTAYMDLSSLKSEDTAMYYCARGRVDYSGYDFWGVEDFDSWGQGTLVTVSS
chain 2: EIVMTQSPATLSVSPGERATLSCRASQSVSSNLAWYQQKHGQAPRLLIYDASTRATGIPARFSGSGSGTEFTLTISSLQSEDFAVYYCQQYNDWPPAFGGGAKVEIK
B5: BD55-6279 (protein)
chain 1: QVQLVESGGGVVQPGRSLRLSCAVSGFTFSSYGMHWVRQAPGKGLEWVAVISYDGSNKYYADSVKGRFTISRDDSKNTLYLQMNSLRSEDTAVYYCVKELAVSGYYYYYYMDVWGKGTTVTVSS
chain 2: DIVMTQSPDSLAVSLGERATINCKSSQSVLYGSNNKNSLAWFQQKPGQPPKVLIYWASSRESGVPDRFSGSGSGTDFTLTISNLQAEDVAVYYCQQYYSIPITFGQGTRLEIK
B6: BD55-6280 (protein)
chain 1: EVQLLESGGGLIQPGGSLRLSCAASGFTFSNYAMSWVRQAPGKGLEWVSDISGSGRSPDYADSVKGRFTISRDNSKNTLYLLMNSLRAEDTAVYYCVKDPFPTYYYDKSRFDSWGQGTLVTVSS
chain 2: DVVMTQSPLSLPVTLGQPASISCRSSQSLVYSDGITYLSWFQQRPGHSPRRLIYKVSNRDSGVPDRFSGSGSGTDFTLKISRVEAEDVGMYYCMQSTNWPPAFGGGTKVEIK
B7: BD55-6256 (protein)
chain 1: QITLKESGPTLVKPTQTLTLTCTFSGFSLSTTGVGVGWIRQPPGKALEWLALLYWDDDKRYSPSLKSRLTVTKDTSKNQVVLTMTNMDPVDTATYYCAHTSRLNYFGSGSYLDYWGQGTLVTVSS
chain 2: EIVLTQSPDTLSLSPGERATLSCRASQSVSIFLAWYQQKPGQAPRLLFYDASTRATGIPDRFSVSGSGTDFTLTISRLEPEDFAVYYCQHYGSSPPGTFGQGTRLETK
B8: BD55-6271 (protein)
chain 1: QVLLVQSGAEVRKPGASVRLSCKASGYSVGTYALHWVRQAPGQGLEWMGWINSGNDYTRYSQNFQGRVTISRDTSANTAYMELNSLKSQDTALYYCAREGSDWHAIYFDLWGQGSLVTVSS
chain 2: DIQMTQSPSSLSASVGDRVTITCRASQNVNNYLNWYQKKPGLAPKLLIYAASILQSGVPSRFSGSGSGTAFSLTITNLQPEDFATYYCQQSYETPPITFGQGTRLDIK
B9: BD55-6270 (protein)
chain 1: QVQLVQSGAEVKKPGASVRVSCKASGYTFSSYDINWVRQATGQGLEWMGWMNPNSGNTGYAHKFQGRVTMTGNTSISTAYMELSGLSSEDTAVYYCGRGLSVVKYYYYAMDVWGPGTTVTVSS
chain 2: DIQMTQSLSSLSASVGDRVTITCRASQSISTYLNWYQQQPGKVPKLLIYAASSLQSGVPSRFSGSGSGTDFTLTISSLQPEDFATYYCQQSYSFPGTFGQGTKVEIK
B10: BD55-6258 (protein)
chain 1: QVHLVESGGGVVQPGRSLRLSCAASGFTFSTYGIHWVRQAPGKGLEWVALIWNDGSKTYYPDSVKGRFTISRDNSKNTVSLQMNSLRDEDTAVYYCARDSLCSGGICYFDYNWFDVWGQGTLVTVSS
chain 2: EIVLTQSPATLSLSPGERVTLSCKASQSVSRHLAWYQQKPGQPPRLLIYDASNRATGVPARFSGSGSGTDFTLTISSLEPEDFAVYYCQQRYTWPPAYTFGQGTKLQIK
B11: BD55-6266 (protein)
chain 1: QVQLVESGGGVVQPGRSLRLSCAASGFTFSSHGIHWVRQAPGKGLEWVALIWNDGSKTYYPDSVKGRFTISRDNSKNTVYLQMNSLRDEDTAVYYCARDSLCSGGSCYFDYNWFDVWGQGTLVTVSS
chain 2: EIVLTQSPATLSLSPGERVTLSCKASQSVSRHLAWYQQKPGQPPSLLIYDASNRATGVPARFSGSGSGTDFTLTISSLEPEDFAVYYCQQRYTWPPAYTFGQGTKLQIK
B12: BD55-6273 (protein)
chain 1: QVQLVQSGAEVRKPGASVKVSCKASGYTFTSSEINWVRQAAGQGLEWLGWVNPSNGNTDYAHKFQGRVTMTRDTSTNTAYMELRSLTSEDTAVYYCAREKTDMSKYYYYDMDVWGQGTTVTVSS
chain 2: DIQMTQSPSSLSASVGDRVTITCRASQSITYYLNWYQQKPEKAPKLLIFEASSLQSGVPSRFSGSGSGTDFTLTITSLQPEDFATYYCQQSYTFPSTFGQGTKVEIK

What follows are binders tested against SARS-CoV-2 Omicron BA.1 spike pseudovirus (assay: pseudovirus neutralization IC50; higher = weaker neutralization).
Description: (§1)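 Single-round VSV luciferase pseudovirus mixed with antibody dilutions for 1 h and put on Huh-7 cells for about a day; IC50 from the dose curve.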

Binder	pseudovirus neutralization IC50 [µg/mL]
B1	> 10
B2	> 10
B3	0.806
B4	> 10
B5	> 10
B6	> 10
B7	> 10
B8	> 10
B9	> 10
B10	> 10
B11	5.8
B12	> 10

These binders were tested against SARS-CoV-2 Omicron BA.2 spike pseudovirus in the same assay as above.
Description: as §1

Binder	pseudovirus neutralization IC50 [µg/mL]
B1	> 10
B2	> 10
B3	> 10
B4	> 10
B5	> 10
B6	> 10
B7	> 10
B8	> 10
B9	> 10
B10	> 10
B11	7.18
B12	> 10

Each binder was assayed against SARS-CoV-2 Omicron BA.2.75 spike pseudovirus in the same assay as above.
Description: as §1

Binder	pseudovirus neutralization IC50 [µg/mL]
B1	> 10
B2	> 10
B3	> 10
B4	> 10
B5	> 10
B6	> 10
B7	> 10
B8	> 10
B9	> 10
B10	> 10
B11	9.63
B12	> 10

What follows are binders tested against SARS-CoV-2 Omicron BA.5 spike pseudovirus in the same assay as above.
Description: as §1

Binder	pseudovirus neutralization IC50 [µg/mL]
B1	> 10
B2	> 10
B3	> 10
B4	> 10
B5	> 10
B6	> 10
B7	> 10
B8	> 10
B9	> 10
B10	> 10
B11	6.2
B12	> 10

The binders below were run against SARS-CoV-2 Omicron BQ.1.1 spike pseudovirus in the same assay as above.
Description: as §1

Binder	pseudovirus neutralization IC50 [µg/mL]
B1	> 10
B2	> 10
B3	> 10
B4	> 10
B5	> 10
B6	> 10
B7	> 10
B8	> 10
B9	> 10
B10	> 10
B11	5.35
B12	> 10

Each binder was assayed against SARS-CoV-2 Omicron XBB spike pseudovirus in the same assay as above.
Description: as §1

Binder	pseudovirus neutralization IC50 [µg/mL]
B1	> 10
B2	> 10
B3	> 10
B4	> 10
B5	> 10
B6	> 10
B7	> 10
B8	> 10
B9	> 10
B10	> 10
B11	4.85
B12	> 10

What follows are binders tested against SARS-CoV-2 early D614G spike pseudovirus in the same assay as above.
Description: as §1

Binder	pseudovirus neutralization IC50 [µg/mL]
B1	> 10
B2	> 10
B3	0.02
B4	0.0358
B5	> 10
B6	> 10
B7	> 10
B8	> 10
B9	> 10
B10	> 10
B11	3.7
B12	> 10
